PubChem BioAssay AID504761 | Drosophila RNAi Screening Center | 2011
The screen tested about 22,000 reagents; this is a random part of those with a known target gene and a result. Over the whole deposit, 116 (0.52%) got an active call. 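Calls depend on retest data that are not deposited; infection was ranked per plate without normalising between plates; the unit of the infection score is not given.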 Unmarked entries are inactive. Further read-outs or replicates are left out here. Not given: the amount of reagent, the time to read-out.

Purpose: 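Fly genes whose silencing reduces dengue virus type 2 infection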 (primary screen)
Cells: D.Mel-2 cells from Drosophila
Reagent: long dsRNA against Drosophila genes
Challenge: infection with dengue virus type 2; dose and infection time not stated
Detection: 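Per well on two replicate plates, imaging gave the percent of cells positive for viral envelope protein, ranked by infection, and a nuclear count of cells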
Direction: infection score: higher = more virus-infected cells
Call rule: 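Very low infection ranking in both replicate wells (chance probability at most 0.065), then a retest showing infection dropped 1.5-fold or more at p below 0.05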
Meaning of the calls: active = confirmed: knock-down lowers infection; inactive = not picked or not confirmed

crn [DRSC18184] → infection score, replicate 1: 1.04
crn [DRSC18185] → infection score, replicate 1: 1.25
crn [DRSC18755] → infection score, replicate 1: 5.82
sPLA2 [DRSC06041] → infection score, replicate 1: 3.42
sPLA2 [DRSC26194] → infection score, replicate 1: 19
CG5011 [DRSC00039] → infection score, replicate 1: 3.05
CG5011 [DRSC00674] → infection score, replicate 1: 3.8
CG5011 [DRSC29184] → infection score, replicate 1: 11.3
CG5498 [DRSC11608] → infection score, replicate 1: 10.9
CG32945 [DRSC12014] → infection score, replicate 1: 0.78
PGRP-LF [DRSC28930] → infection score, replicate 1: 16.9
RpL13A [DRSC12265] → infection score, replicate 1: 3.44
RpL13A [DRSC27297] → infection score, replicate 1: 15.5
CG1750 [DRSC15240] → infection score, replicate 1: 2.83
CG9636 [DRSC16529] → infection score, replicate 1: 7.03
CG6652 [DRSC10686] → infection score, replicate 1: 1.22
CG6652 [DRSC28835] → infection score, replicate 1: 12.9
Psi [DRSC07519] → infection score, replicate 1: 10.1
Psi [DRSC25220] → infection score, replicate 1: 3.67
mbf1 [DRSC11365] → infection score, replicate 1: 12.5
SH3PX1 [DRSC11139] → infection score, replicate 1: 4.83
CG15563 [DRSC15101] → infection score, replicate 1: 6.71
CG15563 [DRSC27442] → infection score, replicate 1: 6.02
CG31337 [DRSC12981] → infection score, replicate 1: 10.7
CG16957 [DRSC02545] → infection score, replicate 1: 2.3
CG12620 [DRSC02177] → infection score, replicate 1: 2.74
CG12620 [DRSC24601] → infection score, replicate 1: 4.8

4 consecutive entries already listed, quoted:
SH3PX1 [DRSC11139] → infection score, replicate 1: 4.83
CG15563 [DRSC15101] → infection score, replicate 1: 6.71
CG15563 [DRSC27442] → infection score, replicate 1: 6.02
CG31337 [DRSC12981] → infection score, replicate 1: 10.7
